Compound potency records, mixed from different reports. Data source: NIAID ChemDB in PubChem.

Common to all: cytotoxicity tests; cell line: HEL; read-out: CC50

CCn: concentration that lowers growth or viability of the cells by n%. Conditions beyond the fields shown may differ between rows.

smiles	result
O=C(O)/C=C/c1ccc(O)c(O)c1	95 µg/mL
O=C(O)Cc1ccc(O)c(O)c1	200 µg/mL
O=c1[nH]c(=O)n([C@H]2C[C@H](O)[C@@H](CO)O2)cc1C1CCC1	>150 µM
Nc1nc(N)c2ncn(CC(CO)OCP(=O)(O)O)c2n1	>200 µg/mL
O=C(O)c1cc(O)ccc1O	95 µg/mL
Nc1ncnc2c1ncn2C[C@H]1COP(=O)(O)CO1	40 µg/mL
O=C(O)P(=O)(O)O	200 µg/mL
Cc1cn([C@@H]2O[C@H](CO)[C@@H](O)[C@@H]2F)c(=O)[nH]c1=O	1.5 µM
CCCOC(=O)c1cc(O)c(O)c(O)c1	74 µg/mL
c1ccc(C2O[C@@H]2c2ccccc2)cc1	>50 µM
Nc1ncnc2c1ncn2[C@@H]1C[C@H](O)[C@@H](O)[C@H]1O	>50 µg/mL
Oc1ccc(/C=C/c2cc(O)cc(O)c2)cc1	>400 µM
Oc1cccc(O)c1O	165 µg/mL
C#Cc1cn([C@H]2C[C@H](O)[C@@H](CO)O2)c(=O)[nH]c1=O	8.7 µM
O=c1[nH]cnc2c1ncn2CC(CO)OCP(=O)(O)O	>400 µg/mL
Cc1cn([C@H]2C[C@H](O)[C@@H](CO)S2)c(=O)[nH]c1=O	0.8 µM
CCCCCCCCCCCCCCCCOCCCOP(=O)([O-])CO[C@H](CO)Cn1cnc2c(N)nc(N)nc21	>161 µM
Cc1cn(CC(CO)OCP(=O)(O)O)c(=O)[nH]c1=O	>400 µg/mL
O=C(O)/C=C/c1ccc(O)c(O)c1.O=C(O)c1cc(O)c(O)c(O)c1	156 µg/mL
O=c1[nH]c(=O)n([C@H]2C[C@H](O)[C@@H](CO)O2)cc1/C=C/Br	339 µM
Cc1cn([C@@H]2O[C@H](CO)[C@@H](O)[C@@H]2O)c(=O)[nH]c1=O	58 µM
O=c1[nH]c(=O)n([C@H]2C[C@H](O)[C@@H](CO)O2)cc1/C=C/Br	≥600 µM
C[C@H](O)C1=C[C@@H](n2cnc3c(N)ncnc32)[C@H](O)[C@@H]1O	132 µg/mL
CCCCCCCCCCCCCCCCCCOCCOP(=O)([O-])CO[C@H](CO)Cn1cnc2c(N)nc(N)nc21	18.84 µM
Nc1ncnc2c1ncn2[C@@H]1C[C@H](c2ccccc2)[C@@H](O)[C@H]1O	150 µg/mL
Nc1nc2c(ncn2COCCO)c(=O)[nH]1	≥800 µM
CNC[C@H](O)c1ccc(O)c(O)c1	79 µg/mL
O=c1[nH]c(=O)n([C@H]2C[C@H](O)[C@@H](CO)O2)cc1C1CCCC1	>150 µM
Nc1ncnc2c1ncn2[C@@H]1C=C(CO)[C@@H](O)[C@H]1O	43 µg/mL
N[C@H](c1ccccc1)[C@H](N)c1ccccc1	>50 µM
C=Cc1cn([C@@H]2O[C@H](CO)[C@@H](O)[C@@H]2O)c(=O)[nH]c1=O	>592 µM
Nc1ncnc2c1ncn2C[C@@H](CO)OCP(=O)(O)O	20 µg/mL
C(/C=C/c1ccccc1)=C\c1ccccc1	>50 µM
Nc1ncnc2c1ncn2C[C@@H](CO)OCP(=O)(O)O	20 µg/mL
CCCCCCCCCCCCCCCCOCCOP1(=O)CO[C@@H](Cn2cnc3c(N)nc(N)nc32)CO1	28.1 µM
Nc1ncnc2c1ncn2[C@@H]1C[C@H](CO)[C@@H](O)[C@H]1O	1.25 µg/mL
O=c1[nH]c(=O)n([C@@H]2O[C@H](CO)[C@@H](O)[C@@H]2O)cc1/C=C/Br	>406 µM
C(=C\c1ccncc1)/c1ccncc1	>50 µM
CCc1cn([C@H]2C[C@H](O)[C@@H](CO)O2)c(=O)[nH]c1=O	8.2 µM
O=c1ccn([C@H]2C[C@H](O)[C@@H](CO)O2)c(=O)[nH]1	>200 µM
O=C(O)CCc1ccc(O)c(O)c1	100 µg/mL
NCC(O)c1ccc(O)c(O)c1	≥200 µg/mL
O=c1[nH]c(=O)n([C@H]2C[C@H](O)[C@@H](CO)S2)cc1C1CCC1	>150 µM
Nc1ncnc2c1ncn2C[C@H](O)CO	183 µg/mL
O=c1ccn([C@H]2C[C@H](O)[C@@H](CO)S2)c(=O)[nH]1	>200 µM
Nc1nccc2c1ncn2[C@@H]1C[C@H](CO)[C@@H](O)[C@H]1O	85 µg/mL

For reference, 7 entries again:

smiles	result
Nc1ncnc2c1ncn2[C@@H]1C[C@H](O)[C@@H](O)[C@H]1O	>50 µg/mL
Nc1ncnc2c1ncn2[C@@H]1C[C@H](CO)[C@@H](O)[C@H]1O	1.25 µg/mL
O=c1[nH]c(=O)n([C@@H]2O[C@H](CO)[C@@H](O)[C@@H]2O)cc1/C=C/Br	>406 µM
O=C(O)c1cc(O)ccc1O	95 µg/mL
O=c1[nH]c(=O)n([C@H]2C[C@H](O)[C@@H](CO)O2)cc1/C=C/Br	≥600 µM
Cc1cn(CC(CO)OCP(=O)(O)O)c(=O)[nH]c1=O	>400 µg/mL
Nc1nccc2c1ncn2[C@@H]1C[C@H](CO)[C@@H](O)[C@H]1O	85 µg/mL